Laboratory results reported in patent US20220408731A1, “MODIFIED ANTIMICROBIAL PEPTIDES” (priority 2021, published 2022).

System: Botrytis cinerea
Test: Antifungal MIC assay in SFM, without or with added salts
Details: low cationic conditions, V1A, V3A, V4A, V5A: B. cinerea, F. graminearum, F. oxysporum, P. capsici, V2A: B. cinerea, V6A: B. cinerea

CC[C@H](C)[C@@H]1NC(=O)[C@H](CCCNC(=N)N)NC(=O)[C@H]([C@@H](C)O)NC(=O)[C@H](C(C)C)NC(=O)[C@H](Cc2ccccc2)NC(=O)[C@H](C(C)C)NC(=O)[C@H](CCCNC(=N)N)NC(=O)[C@H](CCCNC(=N)N)NC(=O)[C@H](CCCNC(=N)N)NC(=O)[C@H](Cc2ccccc2)NC(=O)CNC(=O)[C@H](CCCNC(=N)N)NC(=O)[C@@H](NC(=O)[C@H](CCCNC(=N)N)NC(=O)CNC(=O)CN)CSSC[C@@H](C(N)=O)NC1=O [GMA4C_V3A]
Antifungal activity in vitro relative to the wild-type GMA4C_AC control: equivalent to the wild-type GMA4C_AC control
